# B1: Murinoglobulin-2 (protein, UniProt P28666 28-1451, looked up)
# Murinoglobulin-2: DSKYMVLVPSQLYTETPEKICLHLYHLNETVTVTASLVSQTGRRNLFDELVVDKDLFQCVSFIIPTLNSPDEEEFLYVDIKGPTHEFSKRNAVLVKNKESVVFVQTDKPVYKPGQSVKFRVVSMDKTLRPLNELLPLAYIEDPKKNRIMQWRDIKTENGLKQMSFSLAAEPIQGPYKIVVHKQSGVKEEHSFTVMEFVLPRFNVDLKVPNAISVNDEVLQVTVCGKYTYGKPVPGQVKISICHETEAGCKEVNSKLDNNGCSTQEVNITELQSKKRNYEVQLFHVNATVTEEGTGLEFNGYGTTKIERITNKLIFLKADSHFRHGIPFFVKVRLVDIKGDPIPNERVFIKAQVLGYTSATTTDQHGLAKFSIDTAGFSGSSLHIKVNHKGKDSCYFFYCMEERYASAEHVAYAVYSLSKSYIYLVKETSSILPCNQIHTVQAHFILKGDLGVLKELVFYYLVMAQGSIIQTGNHTHQVEPGEAPVKGNFDLEIPVEFSMAPMAKMLIYTILPDGEVIADSVNFEIEKCLRNKVDLSFSSSQSLPASQTRLQVTASPQSLCGLRAVDQSVLLLKPEDELSPSWIYNLPGMQHNKFIPSSSLSEDREDCILYSSWVAEKHTDWVPHGREKDVYRYVEDMDLKAFTNLKIKLPKICFDSAPMSGPRGKFDLAFSSEVSGTLQKGSSKRPQPEEPPREDPPPKDPLAETIRKYFPETWVWDIVTVNSTGVAEVEMTVPDTITEWKAGALCLSNDTGLGLSSVVPLQAFQPFFVEVSLPYSVVRGEAFMLKATVMNYLPTSMRMSVQLEASPDFTAVPVGDDHDSYCLSANGRHTSSWLVTPKSLGNVNFSVSVEAQQSSEPCGSEVATVPETGRKDTVVKVLIVEPEGIKQEHTFNSLFCASDAEISEKMSLVLPPTVVKDSARAHFSVMGDILSSAIKNTQNLLHMPYGCGEQNMVLFAPNIYVLKYLDKTQQLTQKIKTKALGFLRAGYQRELNYKHKDGSYSAFGDQNGEREGNTWLTAFVLKSFAQARAFIFIDESHITHAFTWLSQQQKDNGCFRSSGSLFHNDIKHPVVSKALSCLESSWKTIEQGRNANFVYTKALMAYAFALAGNQDKRNEILKSLDEEAIKEDNSIHWERPQKPRKSEHNLYKPQASSVEVEMNAYVVLARLTAQPAPSPEDLTLSRSTIMWLTKQQNSNGGFSSTQDTVVALDALSKYGAVTFSRRQKTSLVTIQSTGSFSQKFQVENSNCLLLQQVPLPDIPGDYTISVSGEGCVYAQTTLRYNMHLEKQQSAFALRVQTVPLTCNNPKGHNSFQISLEISYTGSRPASNMVIADVKMLSGFIPLKPTVKKLERLEHISRTEVSNNNVLLYLDQVTNQTLAFSFIIQQDISVRNLQPAIVKVYDYYETDEVAYAEYSSPCSSDKQNV
# B2: Metalloproteinase inhibitor 3 (protein, UniProt P39876 24-211, looked up)
# Metalloproteinase inhibitor 3: CTCSPSHPQDAFCNSDIVIRAKVVGKKLVKEGPFGTLVYTIKQMKMYRGFSKMPHVQYIHTEASESLCGLKLEVNKYQYLLTGRVYEGKMYTGLCNFVERWDHLTLSQRKGLNYRYHLGCNCKIKSCYYLPCFVTSKNECLWTDMLSNFGYPGYQSKHYACIRQKGGYCSWYRGWAPPDKSISNATDP
# B3: Complement C1r-A subcomponent (protein, UniProt Q8CG16 17-707, looked up)
# Complement C1r-A subcomponent: SIYLPQKLYGEVTSPLYPKPYPSDLETTTVITVPMGYRVKLVFWQFDVEPSEGCFYDYVKISADKQTLGRFCGQLDSPLGNPPGSKEFMSQGNKMLLTFHTDFSNEENGTIMFYKGFLAYYQAVDLDECASQPNSVEEGLQPRCQHLCHNYVGGYFCSCHPGYELQKDGQSCQAECSSELYTEPSGYVSSLEYPQPYPPDLRCNYSIRVERGLTVHLKFLDPFEIDDHQQVHCPYDQLQIYANGKNLGEFCGKQRPPDLDTSSNAVDLLFFTDESGDSRGWKLHYTTETIKCPQPKALDEFTIIQDPQPQYQFRDYFIVTCKQGYQLMEGNQALLSFTAVCQNDGTWHRAMPRCKIKNCGQPQSLSNGDFRYITTKGVTTYEASIQYHCHEPYYKMLTRAGSSESMRGIYTCTAQGIWKNEEEGEKMPRCLPVCGKPVNPVTQKERIIRGQPARPGNFPWQAFTTTHGRGGGALLGDRWILTAAHTIYPKHHNKENDNANPKMLVFLGHTNVEQIKKLGHHPVRRVIIHPDYRQDEPNNFEGDIALLELENSVTLGPELLPICLPDNETFYGQGLMGYVSGFGITEDKLAFDLRFVRLPVADSEACQRWLQTKKDTSPFSQNMFCSGDPAVQQDACQGDSGGVFAVRDRNRDIWVATGIVSWGIGCGEGYGFYTKVLNYVDWIKKEMGDEN
# B4: Carboxypeptidase Q (protein, UniProt Q9WVJ3 43-470, looked up)
# Carboxypeptidase Q: DVAKAIINLAVYGKYQNRSYERLGLLVDTVGPRLSGSKNLEKAIQIMYQNLQQDGLENVHLEQVRIPHWERGEESAVMLEPRIHKMAILGLGSSIGTPPGGITAEVLVVASFDELQRRASEARGKIIVYNQPYTGYEKTVQYRVQGAVEAAKVGAVASLIQSVASFSIYSPHTGIQKYQDGVPKIPTACITVEDAEMMSRMASRGNKIVIHLEMGAKTYPDTDSFNTVAEITGSMYPEEVVLVSGHLDSWDVGQGALDDGGGAFISWEALSLVKDLGLRPKRTLRLVLWTAEEQGGIGASQYYELHKANISKYSLVMEADSGTFLPTGLQFTGSDKARAIMKEVMNLLQPLNVTKVFSNGEGTDINFWIQAGVPGASLRDDLYKYFFFHHSHGDTMTVMDPKQMNVAAAVWAVVAYVVADMDEMLPRS
# B5: Dematin (protein, UniProt Q9WV69 1-405, looked up)
# Dematin: MERLQKQPLTSPGSVSSSRDSSVPGSPSSIVAKMDNQVLGYKDLAAIPKDKAILDIERPDLMIYEPHFTYSLLEHVELPRSRECSLSPKSTSPPPSPEVWAESRTLGIISQASTPRTTGTPRTSLPHFHHPETTRPDSNIYKKPPIYKQRESVGGSPQSKHLIEDLIIESSKFPAAQPPDPNQPAKIETDYWPCPPSLAVVETEWRKRKASRKGAEEEEEEEDDDSEEEIKAIRERQKEELSKVTSNLGKMILKEEMEKSLPIRRKTRSLPDRTPFHTSLHSGTSKSSSLPSYGRTTLSRLQSTEFSPSGSEAGSPGLQNGEGQRGRMDRGNSLPCVLEQKIYPYEMLVVTNKGRTKLPPGVDRMRLERHLSAEDFSRVFAMSPEEFGKLALWKRNELKKKASLF
# B6: Alpha-1-antitrypsin 1-1 (protein, UniProt P07758 25-413, looked up)
# Alpha-1-antitrypsin 1-1: EDVQETDTSQKDQSPASHEIATNLGDFAISLYRELVHQSNTSNIFFSPVSIATAFAMLSLGSKGDTHTQILEGLQFNLTQTSEADIHKSFQHLLQTLNRPDSELQLSTGNGLFVNNDLKLVEKFLEEAKNHYQAEVFSVNFAESEEAKKVINDFVEKGTQGKIAEAVKKLDQDTVFALANYILFKGKWKKPFDPENTEEAEFHVDESTTVKVPMMTLSGMLHVHHCSTLSSWVLLMDYAGNATAVFLLPDDGKMQHLEQTLSKELISKFLLNRRRRLAQIHFPRLSISGEYNLKTLMSPLGITRIFNNGADLSGITEENAPLKLSQAVHKAVLTIDETGTEAAAVTVLQMVPMSMPPILRFDHPFLFIIFEEHTQSPIFLGKVVDPTHK
# B7: Ras-related protein Rab-19 (protein, UniProt P35294 1-217, looked up)
# Ras-related protein Rab-19: MQFSSSSRTSDENVDYLFKVILIGDSNVGKTCVVQHFKSGVYSESQQNTIGVDFTVRSLEIDGKKVKMQVWDTAGQERFRTITQSYYRSAHAAIIAYDLTRRSTFESVPHWIHEIEKYGAANLVIMLIGNKSDLWEKRHVLFEDACTLAEKHGLLAVLETSAKESRNIDEVFVLMAKELIARNSLHLYGESAQQGLSQDSSPVLVAQVPNESTRCTC
# B8: Protein disulfide-isomerase A3 (protein, UniProt P27773 25-505, looked up)
# Protein disulfide-isomerase A3: SDVLELTDENFESRVSDTGSAGLMLVEFFAPWCGHCKRLAPEYEAAATRLKGIVPLAKVDCTANTNTCNKYGVSGYPTLKIFRDGEEAGAYDGPRTADGIVSHLKKQAGPASVPLRTEEEFKKFISDKDASVVGFFRDLFSDGHSEFLKAASNLRDNYRFAHTNIESLVKEYDDNGEGITIFRPLHLANKFEDKTVAYTEKKMTSGKIKKFIQDSIFGLCPHMTEDNKDLIQGKDLLTAYYDVDYEKNAKGSNYWRNRVMMVAKKFLDAGHKLNFAVASRKTFSHELSDFGLESTTGEVPVVAIRTAKGEKFVMQEEFSRDGKALEQFLQEYFDGNLKRYLKSEPIPESNEGPVKVVVAENFDDIVNEEDKDVLIEFYAPWCGHCKNLEPKYKELGEKLSKDPNIVIAKMDATANDVPSPYEVKGFPTIYFSPANKKLTPKKYEGGRELNDFISYLQREATNPPIIQEEKPKKKKKAQEDL
# B9: Monocarboxylate transporter 1 (protein, UniProt P53986 1-493, looked up)
# Monocarboxylate transporter 1: MPPAIGGPVGYTPPDGGWGWAVLVGAFISIGFSYAFPKSITVFFKEIEVIFSATTSEVSWISSIMLAVMYAGGPISSILVNKYGSRPVMIAGGCLSGCGLIAASFCNTVQELYLCIGVIGGLGLAFNLNPALTMIGKYFYKKRPLANGLAMAGSPVFLSTLAPLNQAFFDIFDWRGSFLILGGLLLNCCVAGSLMRPIGPEQVKLEKLKSKESLQEAGKSDANTDLIGGSPKGEKLSVFQTINKFLDLSLFTHRGFLLYLSGNVVMFFGLFTPLVFLSSYGKSKDFSSEKSAFLLSILAFVDMVARPSMGLAANTKWIRPRIQYFFAASVVANGVCHLLAPLSTTYVGFCVYAGVFGFAFGWLSSVLFETLMDLIGPQRFSSAVGLVTIVECCPVLLGPPLLGRLNDMYGDYKYTYWACGVILIIAGIYLFIGMGINYRLLAKEQKAEEKQKREGKEDEASTDVDEKPKETMKAAQSPQQHSSGDPTEEESPV
# Test system: coronal proteins on NPs
# Parameters: species or system mouse
# Conditions: HBPE-NPs incubated 1 h with IAV day 5 (V5) mouse sera, 20:1 NP:sera, centrifuged and washed
row,Molecule,V5 Sera_Nanoparticles Quantitative Value (Normalized Total Spectra)
1,B1,39.165
2,B2,1.0879
3,B3,1.0879
4,B4,1.0879
5,B5,1.0879
6,B6,35.901
7,B7,1.0879
8,B8,1.0879
9,B9,1.0879

# Same assay, conditions: IAV day 5 (V5) mouse sera alone, no NPs (sera-only control)
row,Molecule,V5 Sera Alone (Control) Quantitative Value (Normalized Total Spectra)
1,B1,29.607
2,B2,0
3,B3,0
4,B4,0
5,B5,0
6,B6,55.514
7,B7,0
8,B8,0
9,B9,0

# Source: patent publication US20240122867A1, “CORONAL PROTEIN-COATED NANOPARTICLES AND USES THEREOF” (UNIVERSITY OF CENTRAL FLORIDA RESEARCH FOUNDATION, INC., priority 2021, published 2024)
